Anti-infective test results gathered from many reports (values: NIAID ChemDB through PubChem).

Shared fields: growth or infection tests; organism: Mycobacterium tuberculosis

ECn: concentration that inhibits the pathogen or its effect by n%. Conditions beyond the fields shown may differ between rows. Inhibition is in % at the dose shown (toxicity tests: loss of growth or viability). MIC50, MIC90 and the like: level of inhibition, or share of isolates inhibited. MIC bound comes from a single tested concentration. Blank or dashed fields: not listed here.

SMILES,mutations,cell line,tested at,measure,method,strain,value
COc1ccc(-c2nc3ccccc3[nH]2)cc1O,,,,MIC,radiometric,H37Rv,>500 µM
CC(=O)Nc1ccc(S(=O)(=O)N/N=C\c2ccccc2)cc1,,,,MIC,,,>200 µg/mL
O=c1oc2cc(O)ccc2c2oc3cc(O)ccc3c12,,,128 µg/mL,inhibition,BACTEC,H37Rv,59%
COc1cccc2cc(-c3cn4ccccc4n3)c(=O)oc12,,,6.25 µg/mL,inhibition,BACTEC,H37Rv,0%
CCCCCc1ccc(Oc2cnccc2C#N)c(O)c1,,,,MIC100,,,12.5 µg/mL
CC1(C)N=C(N)N=C(N)N1OCCc1ccc2ccccc2c1,Overexpressing DHFR,,,MIC90,resazurin / fluorescence,H37Rv,11.7 µM
S=C(Nc1ccccn1)Nc1ncc(C2CCC2)o1,,,,MIC,agar,MDR clinical isolate,6.42 µM
COC(=O)C1=C(C)NC(=NCc2ccc(OC)cc2OC)NC1c1ccc(Cl)cc1,,,,MIC,agar,H37Rv,16 µg/mL
Cl.Cl.N=C(N)c1ccc2oc3ccc(C(=N)N)cc3c(=O)c2c1,,,12.5 µg/mL,inhibition,BACTEC,H37Rv,3%
NNC(=O)c1ccncc1,,,,MIC,,H37Rv,0.73 µM
CN(C)c1ccc(/C=C(\NC(=O)c2ccccc2)c2nc3c4c(ccc3[nH]2)C(=O)c2ccccc2C4=O)cc1,,,,MIC bound,resazurin,H37Rv,>6.25 µg/mL
COc1cc(C2=C(C(=O)Nc3ccc(S(=O)(=O)c4ccc(NC(=O)C5=C(c6cc(OC)c(OC)c(OC)c6)NC(N)=NC5C)cc4)cc3)C(C)N=C(N)N2)cc(OC)c1OC,,,,MIC,,H37Rv,1.56 µM
CCCCCCCCCCCC(=O)NN=C(C)C,,,,MIC,,,>200 µg/mL
CC1N=C(N)NC(c2ccccc2Cl)=C1C(=O)Nc1ccc(S(=O)(=O)c2ccc(NC(=O)C3=C(c4ccccc4Cl)NC(N)=NC3C)cc2)cc1,,,,MIC,,H37Rv,0.22 µM
NC(=O)c1cnc(Cl)cn1,,,,MIC,,DHMH 4319,8 µg/mL
C[C@H](O)[C@H]1C(=O)N2C(C(=O)O)=C(S[C@@H]3CN[C@H](C(=O)Nc4cccc(C(=O)O)c4)C3)[C@H](C)[C@H]12,,,,MIC,resazurin,H37Rv,>80 µM
COc1cc(-c2nc3ccccc3[nH]2)cc(OC)c1OC,,,,MIC,radiometric,H37Rv,>500 µM
Cc1ccn2cc(-c3cc4ccccc4oc3=O)nc2c1,,,6.25 µg/mL,inhibition,BACTEC,H37Rv,0%
NC1=NS(=O)(=O)Nc2nn(-c3ccccc3)nc21,,,,MIC bound,resazurin,H37Rv,>6.25 µg/mL
O=C(N/N=C/c1ccc([N+](=O)[O-])cc1)c1ccccc1Cl,,,,MIC,,,100 µg/mL
CC1(C)S[C@@H]2[C@H](NC(=O)[C@H](N)c3ccc(O)cc3)C(=O)N2[C@H]1C(=O)O,,,42 µg/mL,inhibition,resazurin,H37Rv,80%
CO[C@H]1/C=C/O[C@@]2(C)Oc3c(C)c(O)c4c(O)c(c(/C=N/N5C(C)CN(Cc6ccccc6)CC5C)c(O)c4c3C2=O)NC(=O)/C(C)=C\C=C\[C@H](C)[C@H](O)[C@@H](C)[C@@H](O)[C@@H](C)[C@H](OC(C)=O)[C@@H]1C,,,,EC50,agar,H37Rv,4 µg/mL
CCCCCc1ccc(Oc2cncnc2N)c(O)c1,,,,MIC100,,,3.125 µg/mL
COc1ccc2nc(-c3ccc(O)c(OC)c3)[nH]c2c1,,,,MIC,radiometric,H37Rv,>500 µM
C/C(=N/NC(=O)c1ccccc1Cl)c1ccccc1,,,,MIC,,,10 µg/mL
NNC(=O)C1CCNC2CCCCC21,,,,MIC,,BCG,80 µg/mL
CO[C@H]1CCC[C@H]2C1=C(C(=O)O)N1C(=O)[C@H]([C@@H](C)O)[C@@H]21,,THP-1,,MIC90,luminescence,H37Rv,5.57 µM
O=C1CCCCCN1C(=O)c1ccccc1,,,,MIC bound,BACTEC,H37Rv,>12.5 µg/mL
Cc1c(N2CCN(C)C(c3ccccc3)C2)c([N+](=O)[O-])cc2c(=O)c(C(=O)O)cn(-c3ccc(F)cc3F)c12,,,,MIC,,H37Rv,>23.39 µM
C=C=C(CCCC)C(=O)O,,,,MIC bound,BACTEC,H37Rv,>12.5 µg/mL
Cc1ccn2cc(-c3cc4cccc([N+](=O)[O-])c4oc3=O)nc2c1,,,,MIC,BACTEC,H37Rv,>6.25 µg/mL
COC(=O)C1=C(C)NC(Nc2cccc(SC(F)(F)F)c2)=NC1c1ccc(Cl)cc1,,,,MIC,agar,XDR-TB,>64 µg/mL
O=C(O)c1ccc(C2=Nc3cccc4cccc(c34)N2)cc1,,,,MIC bound,BACTEC,H37Rv,>12.5 µg/mL
Cc1c(N2CCCC(C(=O)N(C)C)C2)c([N+](=O)[O-])cc2c(=O)c(C(=O)O)cn(C3CC3)c12,,,,MIC,,H37Rv,13.28 µM
COC(=O)C1=C(C)NC(Nc2ccc(Br)cc2)=NC1c1ccc(Cl)cc1,,,,MIC,agar,XDR-TB,>64 µg/mL
CO[C@@]12[C@H](COC(N)=O)C3=C(C(=O)C(C)=C(N)C3=O)N1C[C@H]1[C@@H]2N1C,,,,MIC bound,BACTEC,H37Rv,≤12.8 µg/mL
O=c1cccc(NC(=S)Nc2ncc(C3CCC3)o2)[nH]1,,,,MIC,agar,MDR clinical isolate,5.39 µM
COc1ccc(C(=O)N=C2N(c3ccccc3)C(=Nc3ccccc3)C(=Nc3ccccc3)N2c2ccccc2)cc1,,,12.5 µg/mL,inhibition,BACTEC,H37Rv,88%
CCCCCc1ccc(Oc2ccccc2Cl)c(O)c1,,,,MIC100,,,1.56 µg/mL
CO[C@H]1/C=C/O[C@@]2(C)Oc3c(C)c(O)c4c(O)c(c(/C=N/N5CCN(C)CC5)c(O)c4c3C2=O)NC(=O)/C(C)=C\C=C\[C@H](C)[C@H](O)[C@@H](C)[C@@H](O)[C@@H](C)[C@H](OC(C)=O)[C@@H]1C,,,,MIC,resazurin / absorbance,H37Rv,0.001 µg/mL
CN1CCC=C(C(=O)O)C1,,,12.8 µg/mL,inhibition,BACTEC,H37Rv,12%
Cc1ccccc1Cn1ccc2c3c(N)nc(N)nc3ccc21,,,,MIC90,resazurin / fluorescence,H37Rv,1 µM
OC[C@@H](O)[C@@H](O)[C@H](O)[C@H](O)/C=N/Nc1ccccc1,,,6.25 µg/mL,inhibition,resazurin,H37Rv,33%
NC1=NC2(CCCCC2)N(OCCCOc2ccc3ccccc3c2)C(N)=N1,,,,MIC90,resazurin / fluorescence,H37Rv,0.5 µM
Cc1c(N2C[C@@H](C)O[C@@H](C)C2)c([N+](=O)[O-])cc2c(=O)c(C(=O)O)cn(C3CC3)c12,,,,MIC,,H37Rv,0.97 µM
Cc1nn(C(=S)S)c(C)c1N=Nc1cccc(F)c1,,,,MIC bound,BACTEC,H37Rv,≤128 µg/mL
O=c1oc2ccc(Br)cc2cc1-c1cn2ccccc2n1,,,6.25 µg/mL,inhibition,BACTEC,H37Rv,5%
CCN(CC)C(=S)SCC(=O)O,,,,MIC,BACTEC,H37Rv,≥128 µg/mL
Clc1ccccc1-c1nc2ccccc2[nH]1,,,,MIC,radiometric,H37Rv,>500 µM
Cc1ccc(NC(=S)Nc2ncc(C3CCC3)o2)cc1,,,,MIC,agar,H37Rv,6.12 µM
CCc1cc(C(C)=O)ccc1OCCCON1C(N)=NC(N)=NC1(C)C,Overexpressing DHFR,,,MIC90,resazurin / fluorescence,H37Rv,>2 µM
COC(=O)C1=C(C)NC(Nc2cc(O)cc(Cl)c2)=NC1c1ccc(Cl)cc1,,,,MIC,agar,H37Rv,32 µg/mL
Nc1ccc(C(=O)N/N=C/c2ccccc2)c(O)c1,,,,MIC,,,10 µg/mL
Cc1ccccc1OCCCON1C(N)=NC(N)=NC1(C)C,,,,MIC90,resazurin / fluorescence,H37Rv,0.5 µM
O=C[C@@H](CO)O[C@H](C=O)N1C=NC2C(=O)N=CN=C21,,,,MIC bound,BACTEC,H37Rv,>12.5 µg/mL
CCC1CN(c2c(F)cc3c(=O)c(C(=O)O)cn([C@@H]4C[C@@H]4F)c3c2OC)CCN1,,,,MIC,,68 (RFP-susceptible),0.25 µg/mL
O=[N+]([O-])c1ccnc(NC(=S)Nc2ncc(C3CCC3)o2)c1,,,,MIC,agar,H37Rv,0.15 µM
CC1N=C(N)NC(c2ccc(Cl)cc2)=C1C(=O)Nc1ccc(S(=O)(=O)c2ccc(NC(=O)C3=C(c4ccc(Cl)cc4)NC(N)=NC3C)cc2)cc1,,,,MIC,,H37Rv,0.32 µM
COc1ccc2c(c1)nc(-c1ccc(OC)c(OC)c1)n2Cc1ccc(OC)c(OC)c1,,,,MIC,radiometric,H37Rv,>500 µM
NNC(=O)c1ccncc1,,,,MIC,,BCG,0.02 µg/mL
CC1=C(C)C(c2ccccc2)CC(/C=N/NC(=O)c2ccccc2Cl)C1,,,,MIC,,,100 µg/mL
Cc1ccn2cc(-c3cc4cc(Cl)ccc4oc3=O)nc2c1,,,6.25 µg/mL,inhibition,BACTEC,H37Rv,9%
Cc1c(N2CC(C)OC(C)C2)c([N+](=O)[O-])cc2c(=O)c(C(=O)O)cn(-c3ccc(F)cc3F)c12,,,,MIC,,H37Rv,6.61 µM
O=C(O)COc1ccc(/C=N/NC(=O)c2ccccc2Cl)cc1,,,,MIC,,,<40 µg/mL
NNC(=O)C(c1ccccc1)c1ccccc1,,,,MIC,,BCG,100 µg/mL
O=c1oc2ccc(Br)cc2cc1-c1cn2cc(Br)ccc2n1,,,6.25 µg/mL,inhibition,BACTEC,H37Rv,0%
COc1ccc(-c2nc3ccc([N+](=O)[O-])cc3[nH]2)cc1OC,,,,MIC,radiometric,H37Rv,>500 µM
CCCCCc1ccc(Oc2cccnc2F)c(O)c1,,,,MIC100,,,0.3125 µg/mL
Cc1c(N2CC3CCCNC3C2)c(F)cc2c(=O)c(C(=O)O)cn([C@@H]3C[C@@H]3F)c12,,,,MIC,,41 (RFP-susceptible),<0.003 µg/mL
O=C1CCCCCCCCCCCCCCCO1,,,,MIC bound,BACTEC,H37Rv,≤128 µg/mL
CC1N=C(N)NC(c2ccc(F)cc2)=C1C(=O)Nc1ccc(S(=O)(=O)c2ccc(NC(=O)C3=C(c4ccc(F)cc4)NC(N)=NC3C)cc2)cc1,,,,MIC,,INH resistant,0.1 µM
CC(=O)O[C@@H]1[C@@H](O)C2=C3[C@]4(C)[C@@H]1C(C)(C)C(=O)C[C@@H]4[C@]3(O)[C@H](OC(C)=O)[C@@]1(C[C@H]1C)C2=O,,,,MIC,BACTEC,H37Rv,≥12.5 µg/mL
O=C(NNC(=O)C(Cl)Cl)c1ccc([N+](=O)[O-])cc1,,,,MIC,,,>200 µg/mL
COc1ccc(OC)c(/C=N/NC(=O)c2ccccc2N(C)C)c1,,,,MIC,BACTEC,H37Rv,≥12.5 µg/mL
CO[C@H]1/C=C/O[C@@]2(C)Oc3c(C)c(O)c4c(=O)c(c5oc6cc(N7CCN(CC(C)C)CC7)cc(=O)c6nc5c4c3=C2O)NC(=O)/C(C)=C\C=C\[C@H](C)[C@H](O)[C@@H](C)[C@@H](O)[C@@H](C)[C@H](OC(C)=O)[C@@H]1C,,,,MBC,,Erdman,0.004 µg/mL
CC(=O)NC1CON(C(C)=O)C1=O,,,,MIC bound,BACTEC,H37Rv,>12.8 µg/mL
O=C(N/N=C/c1ccc(O)cc1)c1ccccc1Cl,,,,MIC,,,40 µg/mL
Cc1ccccc1N1CCOS(=O)OC(C)C1,,,,MIC,BACTEC,H37Rv,≥12.5 µg/mL
CC1N=C(N)NC(c2ccccc2)=C1C(=O)Nc1ccc(S(=O)(=O)c2ccc(NC(=O)C3=C(c4ccccc4)NC(N)=NC3C)cc2)cc1,,,,MIC,,H37Rv,0.62 µM
COC(=O)C(Cc1nc2ccc(Cl)cc2[nH]c1=O)C(=O)C(=O)Nc1ccccc1[N+](=O)[O-],,,6.25 µg/mL,inhibition,resazurin,H37Rv,13%
O=C(NNS(=O)(=O)C1CCCCC1)C1CCNCC1,,,,MIC,,BCG,3 µg/mL
CC1N=C(N)NC(c2cccs2)=C1C(=O)Nc1ccc(S(=O)(=O)c2ccc(NC(=O)C3=C(c4cccs4)NC(N)=NC3C)cc2)cc1,,,,MIC,,INH resistant,6.23 µM

A second listing of 5 rows from above:

SMILES	mutations	cell line	tested at	measure	method	strain	value
Cl.Cl.N=C(N)c1ccc2oc3ccc(C(=N)N)cc3c(=O)c2c1			12.5 µg/mL	inhibition	BACTEC	H37Rv	3%
Cc1c(N2CCCC(C(=O)N(C)C)C2)c([N+](=O)[O-])cc2c(=O)c(C(=O)O)cn(C3CC3)c12				MIC		H37Rv	13.28 µM
O=c1oc2ccc(Br)cc2cc1-c1cn2cc(Br)ccc2n1			6.25 µg/mL	inhibition	BACTEC	H37Rv	0%
O=C(O)COc1ccc(/C=N/NC(=O)c2ccccc2Cl)cc1				MIC			<40 µg/mL
CCN(CC)C(=S)SCC(=O)O				MIC	BACTEC	H37Rv	≥128 µg/mL